What was measured:
HepAD38 cells = experiment: Cell viability assay (AlamarBlue) in HepAD38 cells; conditions: HepAD38 cells in the presence of 0.3 μg/ml tetracycline, six days incubation
HBV = experiment: Determination of HBV DNA from the supernatants of HepAD38 cells (anti-HBV activity); conditions: read-out: Cell Activity (EC50); HBV DNA in HepAD38 supernatant at day 6
Procedure: Determination of HBV DNA from the Supernatants of HepAD38 Cells
The anti-HBV activity was analysed in the stable transfected cell line HepAD38, which has been described to secrete high levels of HBV virion particles (Ladner et al., 1997). In brief, HepAD38 cells were cultured at 37° C. at 5% CO2 and 95% humidity in 200 μl maintenance medium, which was Dulbecco's modified Eagle's medium/Nutrient Mixture F-12 (Gibco, Karlsruhe), 10% fetal bovine serum (PAN Biotech Aidenbach) supplemented with 50 μg/ml penicillin/streptomycin (Gibco, Karlsruhe), 2 mM L-glutamine (PAN Biotech, Aidenbach), 400 μg/ml G418 (AppliChem, Darmstadt) and 0.3 μg/ml tetracycline. Cells were subcultured once a week in a 1:5 ratio, but were usually not passaged more than ten times. For the assay 60,000 cells were seeded in maintenance medium without any tetracycline into each well of a 96-well plate and treated with serial half-log dilutions of test compound. […] EC50 values were calculated from relative copy numbers of HBV DNA. […] Viral load was quantitated against known standards using HBV plasmid DNA of pCH-9/3091 (Nassal et al., 1990, Cell 63: 1357-1363) and the LightCycler 480 SW 1.5 software (Roche Diagnostics, Mannheim) and EC50 values were calculated using non-linear regression with GraphPad Prism 6 (GraphPad Software Inc., La Jolla, USA).

The chains behind the UniProt entries cited, without tags or fusion partners.
UniProt P03146, whole entry: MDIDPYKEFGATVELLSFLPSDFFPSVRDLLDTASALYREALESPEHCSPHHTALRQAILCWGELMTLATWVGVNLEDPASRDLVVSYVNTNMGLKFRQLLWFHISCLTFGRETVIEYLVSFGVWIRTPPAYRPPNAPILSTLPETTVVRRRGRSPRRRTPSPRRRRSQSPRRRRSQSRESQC

HBV core protein = HBV core protein (UniProt P03146); conditions: read-out: Assembly Activity (IC50); BODIPY-FL labelled core protein, assembly started with NaCl, read after 6 min

For `Cc1cccc2cc(C(=O)N3CCc4nc(N)sc4C3)[nH]c12`, the CC50 (HepAD38 cells) was greater than 100 µM, the EC50 (HBV) was less than 1000 nM and the IC50 (HBV core protein) was less than 5 µM.

Reference: patent US11267825B2 (AICURIS GMBH & CO. KG, priority 2017, dated 2022)
